Measured values from several laboratories, pooled; numbers as filed in NIAID ChemDB.

Common to all: tests in culture; agent: HIV-1

Blank or dashed fields: not listed here. Fold resistance: result on the changed form divided by that on wild type. Conditions beyond the fields shown may differ between rows. ECn is the concentration giving n% inhibition of infection, replication or growth.

compound | strain or isolate | changes | cells | read by | endpoint | result
COc1ccnc2[nH]cc(C(=O)C(=O)N3C4CC3CN(C(=O)c3ccccc3)C4)c12 | 6535 |  | TZM-bl | luciferase | EC99 | >>250 µM
O=C1Nc2ccc(F)c(F)c2[C@@](/C=C/C2CC2)(C(F)(F)F)N1 |  | RT-V106A |  |  | fold resistance | <6.32
O=C(O)c1cc(-n2cccc2)ccc1Cl | 93IN101 R5 CLADE C |  | PBMC/5.25M7 | luciferase / cell fusion | EC90 | 142 µM
COc1ccnc2[nH]cc(C(=O)C(=O)N3C4CCCC3CN(C(=O)c3ccccc3)C4)c12 | ZM214 |  | TZM-bl | luciferase | EC90 | 38 µM
C/C=C/CSc1cc(NC(=S)c2ccsc2C)ccc1Cl | 4XAZT+L100I (RT D67N K70R L100I T215Y K219Q) | RT-D67N K70R L100I T215Y K219Q | CEM + CEM-SS | p24 | EC50 | 1 µM
COc1ccc(S(=O)(=O)N(CC(C)C)CC(O)CCN2CCN(Cc3cccnc3)C[C@H]2C(=O)NC(C)(C)C)cc1 | IIIB |  | CEM | p24 | EC90 | 1 µM
CC1(C)NC(=O)Cn2c1nc(C(=O)NCc1ccc(F)cc1)c(O)c2=O |  |  | MT-4 | p24 | EC95 | <50 µM
Cc1cc(C)cc(C(=O)c2cc(Cl)ccc2OCC(=O)Nc2ccc(S(N)(=O)=O)cc2C)c1 | HXB2 | RT-G190A | HeLa + HELA CD4+ | β-galactosidase | fold resistance | ~1
COc1ccc(S(=O)(=O)N(CC[C@@H](O)CN(CC(C)C)S(=O)(=O)c2ccc(OC)cc2)CC2CCCC2)cc1 | IIIB |  | CEM | p24 | EC90 | 1 µM
Cc1cc2[nH]cnc2cc1NC(=O)COc1ccc(Cl)cc1C(=O)c1cc(F)cc(C(F)(F)F)c1 | HXB2 | RT-K103N L100I | HeLa + HELA CD4+ | β-galactosidase | fold resistance | ~1
COc1ccc(S(=O)(=O)N(CC2CCCC2)C[C@@H](O)CN(CCc2ccc(O)c(O)c2)C(=O)O[C@H]2CCOC2)cc1 | IIIB |  | CEM | p24 | EC90 | 0.1 µM
Cc1cc(S(N)(=O)=O)ccc1NC(=O)COc1ccc(Cl)cc1C(=O)c1cc(F)cc(F)c1 | HXB2 | RT-E138K | HeLa + HELA CD4+ | β-galactosidase | fold resistance | ~1
O=C(c1ccccc1)N(CCc1ccccc1)C[C@H](O)CN(CC1CCCC1)S(=O)(=O)c1ccccn1 | IIIB |  | CEM | p24 | EC90 | 1 µM
O=C1Nc2ccc(Cl)cc2[C@@](C#CC2CC2)(C(F)(F)F)N1 |  | RT-K103N P225H |  |  | fold resistance | 44.7
CC(C)CN(C(=O)C(=O)N(C)C)C1CN(C)CCn2c1nc(C(=O)NCc1ccc(F)cc1)c(O)c2=O |  |  | MT-4 | p24 | EC95 | <1 µM
O=C(COc1ccc(Cl)cc1C(=O)c1ccccc1)Nc1ccc2cn[nH]c2c1 | HXB2 (RT-K103N Y181C) Recombinant | RT-K103N Y181C | HeLa + HELA CD4+ | β-galactosidase | fold resistance | ~10
CC(C)CN(C(=O)C(=O)C(=O)C(Cc1ccccc1)NC(=O)OC1COCOC1)S(=O)(=O)c1ccccc1 | IIIB |  | CEM | p24 | EC90 | 1 µM
Cc1cc(S(N)(=O)=O)ccc1NC(=O)COc1ccc(Cl)cc1C(=O)c1cc(Cl)cc(C#N)c1 | HXB2 | RT-P225H | HeLa + HELA CD4+ | β-galactosidase | fold resistance | ~1
CN1CCn2c(nc(C(=O)NCc3ccc(F)cc3)c(O)c2=O)C(N(C)S(=O)(=O)N(C)C)C1 |  |  | MT-4 | p24 | EC95 | <1 µM
CCC(=O)c1ccc(F)c([C@@H]2C[C@@H]2NC(=O)Nc2ccc(C#N)cn2)c1O | LAI | NNRTI-resistant (RT Y181V) | TZM-bl | β-galactosidase / luminescence | fold resistance | 58.6
COc1ccc(S(=O)(=O)N(CC2CCCC2)C[C@@H](O)CN(CCc2ccccc2)C(C)=O)cc1 | IIIB |  | CEM | p24 | EC90 | 1 µM
Cc1cc(C#N)cc(C(=O)c2cc(Cl)ccc2OCC(=O)Nc2ccc(S(N)(=O)=O)cc2C)c1 | HXB2 | RT-V106A Y181C | HeLa + HELA CD4+ | β-galactosidase | fold resistance | ~1
COc1ccc(S(=O)(=O)N(CC(C)C)CC(O)CC(=O)N2CCN(Cc3cccnc3)C[C@H]2C(=O)NC(C)(C)C)cc1 | IIIB |  | CEM | p24 | EC90 | 1 µM
Cc1coc(CN2CCn3c(nc(C(=O)NCc4ccc(F)cc4)c(O)c3=O)C2(C)C)n1 |  |  | MT-4 | p24 | EC95 | <1 µM
COc1ccc(S(=O)(=O)N(CC[C@H](O)CN(CC(C)C)S(=O)(=O)c2ccc(OC)cc2)CC(C)C)cc1 | IIIB |  | CEM | p24 | EC90 | 0.1 µM
CC(=O)N1Cn2c(nc(C(=O)NCc3ccc(F)cc3)c(O)c2=O)C1(C)C |  |  | MT-4 | p24 | EC95 | <50 µM
CC(C)CN(CC(O)Cn1ccnc1C(=O)NC(C)(C)C)S(=O)(=O)c1ccccc1 | IIIB |  | CEM | p24 | EC90 | 1 µM
Cc1cc(S(N)(=O)=O)ccc1NC(=O)COc1ccc(Cl)cc1C(=O)c1cc(F)cc(C#N)c1 | HXB2 | RT-P236L | HeLa + HELA CD4+ | β-galactosidase | fold resistance | ~1

For reference, 2 entries again:

compound,strain or isolate,changes,cells,read by,endpoint,result
COc1ccc(S(=O)(=O)N(CC(C)C)CC(O)CCN2CCN(Cc3cccnc3)C[C@H]2C(=O)NC(C)(C)C)cc1,IIIB,,CEM,p24,EC90,1 µM
CC(C)CN(C(=O)C(=O)C(=O)C(Cc1ccccc1)NC(=O)OC1COCOC1)S(=O)(=O)c1ccccc1,IIIB,,CEM,p24,EC90,1 µM